Assay results reported in article PMC8061081 (Fitoterapia, 2021).

Biological target: SARS-CoV-2 3CL^pro (Severe acute respiratory syndrome coronavirus 2, UniProt P0DTD1)
Format: biochemical
Details: 3CLpro 4 μg/mL, preincubation 37 °C 40 min, substrate 20 μM, PBS pH 7.4

ginkgolide C
pIC50: < 4.00

ginkgolide B
pIC50: < 4.00

pIC50: −log10 of the molar value.
